Pooled drug test results. Numbers come from NIAID ChemDB, via PubChem.

Common to all: tests in culture; organism: Cryptococcus neoformans

An empty or dashed field is not shown.

compound	read by	strain	measure	value
C=C1/C=C(\C)[C@H](CC)OC(=O)[C@H](C)C(=O)C(O)(CO)C/C(OC)=C/[C@@H](C)C1		IAM 4772	MIC	0.3 µg/mL
C[C@H]1[C@@H](Oc2ccc(S)cc2)O[C@@H]2O[C@]3(C)CC[C@H]4[C@H](C)CC[C@@H]1C24OO3		ATCC 90113	MIC	>50 µg/mL
C=C1OC(=O)c2c(OC)cc(OC)c(C)c2OC1=C	broth dilution / absorbance	ATCC 90113	MIC	>128 µg/mL
C[N+]1=CC2C(=O)c3nccc4ccnc(c34)C2C1			MIC80	>64 µg/mL
COc1cc(O)c(C(C)=O)c(OC)c1			MFC	>500 µg/mL
C[C@H]1[C@@H](OC2CCC(O)CC2)O[C@@H]2O[C@]3(C)CC[C@H]4[C@H](C)CC[C@@H]1C24OO3		ATCC 90113	MIC	>50 µg/mL
CC(=O)O[C@@H]1C[C@]2(C)C3=C(CC[C@H]2C(C)(C)[C@H]1O[C@@H]1C[C@H](CO)[C@@H](O)[C@H](O)[C@H]1O)[C@@]1(C)CC[C@](C)([C@H](C)C(C)C)[C@@H](C(=O)O)[C@]1(C)CC3		YC203	MIC	16 µg/mL
C=CC[n+]1c2ccccc2cc2[nH]c3ccccc3c21		ATCC 52657	MIC	31.2 µg/mL
C[C@H]1OC(Oc2ccc3c(=O)c(-c4ccc(O)cc4)coc3c2)[C@@H](O)[C@@H](O)[C@H]1O		B42419	MIC	7 µg/mL
c1ccc2c(c1)cc1[nH]c3ccccc3c1[n+]2CC1CCCCC1		ATCC 52657	MIC	62.5 µg/mL
Cc1ccc(C2OC(=O)/C(=C/c3ccc(O)c(O)c3)C2C(=O)O)cc1O		ATCC 36556	MIC	100 µg/mL
C[C@@H](c1ncncc1F)[C@](O)(Cn1cncn1)c1ccc(F)cc1F			MIC90	4 µg/mL
CCCOc1ccc2nc(NC(=O)OC)[nH]c2c1		IU8698	EC90	2.1 µg/mL
CO/C1=C\C(C)=C\[C@@H](C)[C@@H](O)[C@@H](C)C/C(C)=C/C=C/[C@H](OC)[C@@H]([C@@H](C)[C@@H](O)[C@H](C)[C@@]2(O)C[C@@H](O)[C@H](C)[C@@H](C(C)C)O2)OC1=O		H99 ΔCNA1 mutant	MIC	>62.2 µg/mL
CC[C@@]1(O)C(=O)OCc2c1cc1n(c2=O)Cc2cc3c(N)c4c(cc3nc2-1)OCO4		H99	MIC	>100 µg/mL
CC(C)(C)C1CCC(CN2C3=NC[C@H](C4CCCCC4)N3C[C@H]2C2CCCCC2)CC1		ATCC 32045	EC50	4.5 µg/mL
[Cl-].[Li+]		H99 ΔCNA1 mutant	MIC	>42 µg/mL
c1ccc(-c2ccc(C(c3ccccc3)n3ccnc3)cc2)cc1		3 strains	MIC	0.67 µg/mL
c1ccc(CCC[n+]2c3ccccc3cc3[nH]c4ccccc4c32)cc1		ATCC 52657	MIC	15.6 µg/mL
COc1cc(/C=C/[N+](=O)[O-])cc(OC)c1OC		24 isolates	MIC	4–16 µg/mL
c1ccc2nc3c(cc2c1)[nH]c1ccccc13		ATCC 52657	MIC	>250 µg/mL
N#[N+]c1nc(-c2ccc(F)cc2F)[nH]c1C(=O)N1CCCC1		L29	MIC	200 µg/mL
CC(=O)N1CCN(c2ccc(OC[C@H]3CO[C@](Cn4ccnc4)(c4ccc(Cl)cc4Cl)O3)cc2)CC1	broth dilution	ATCC 32264	MIC100	0.25 µg/mL
CO[C@@H]1O[C@@H]2O[C@]3(C)CC[C@H]4[C@H](C)CC[C@@H]([C@H]1C)C24OO3		ATCC 90113	MIC	>50 µg/mL
C1CCC(C[C@H]2CN=C3N2C[C@@H](C2CCCCC2)N3CCC23CC4CC(CC(C4)C2)C3)CC1		ATCC 32045	MIC	8–16 µg/mL
CN(C)C1=NC(=O)/C(=C/c2ccc(F)cc2)S1	broth dilution	ATCC 32264	MIC100	>250 µg/mL
CC(C)[C@@H](C)/C=C/[C@@H](C)[C@H]1CCC2=C3[C@@H](O)C4OC45C[C@@H](OC(=O)[C@@H](N)[C@@H](OS(=O)(=O)O)C(C)C)CC[C@]5(C)[C@H]3CC[C@@]21C(=O)O		MY2061	MIC	>32 µg/mL
Cc1ccc(C(F)(F)C(F)(F)c2ccc(C(C)(C)N)cc2)cc1		MY2062	MIC100	0.25 µg/mL
CCCc1nc([N+]#N)c(C(=O)N2CCCC2)[nH]1		L29	MIC	50 µg/mL
CCC(C)CC(C)CCCCCCCCC(=O)N[C@H]1C[C@@H](O)[C@H](NCCN)NC(=O)[C@@H]2[C@@H](O)CCN2C(=O)[C@H]([C@H](O)CCN)NC(=O)[C@H]([C@H](O)[C@@H](O)c2ccc(O)cc2)NC(=O)[C@@H]2C[C@@H](O)CN2C(=O)[C@H]([C@@H](C)O)NC1=O		H99	MIC	12.5 µg/mL
C1CCC([C@@H]2CN3C(=NC[C@H]3C3CCCCC3)N2CCC23CC4CC(CC(C4)C2)C3)CC1		ATCC 32045	EC50	3.8 µg/mL
C=C(C)CN1CC(OCC23C[C@@H]4[C@H](C)CC[C@H]4C4(C=O)CC2C=C(C(C)C)[C@@]34C(O)O)O[C@H](C)[C@@H](O)C1		ATCC 90012	MIC	0.12 µg/mL
CC[C@@]1(O)C(=O)OCc2c1cc1n(c2=O)Cc2c-1nc1cc3c(cc1c2C)OCO3		H99	MIC	>100 µg/mL
C[C@H]1[C@@H](Oc2ccc(O)cc2)O[C@@H]2O[C@]3(C)CC[C@H]4[C@H](C)CC[C@@H]1C24OO3		ATCC 90113	MIC	>50 µg/mL
C1CCC([C@H]2CN=C3N2C[C@@H](C2CCCCC2)N3CCC23CC4CC(CC(C4)C2)C3)CC1		ATCC 32045	MIC	4–8 µg/mL
c1ccc2c(c1)cc1[nH]c3ccccc3c1[n+]2CC1CC1		ATCC 52657	MIC	31.2 µg/mL
N#[N+]c1nc(-c2ccccc2F)[nH]c1C(=O)N1CCCC1		L29	MIC	200 µg/mL
O=[N+]([O-])c1ccc(CNC2CCc3c(O)cccc3C2)cc1			MIC	>64 µM
CC(C)C[C@@H]1CN2C(=NC[C@@H]2C2CCCCC2)N1CCC12CC3CC(CC(C3)C1)C2		ATCC 32045	MIC	5–8 µg/mL
COC(=O)Nc1nc2ccc(Sc3ccccc3)cc2[nH]1		IU4	EC90	0.028 µg/mL
O=C(C[n+]1c2ccccc2cc2[nH]c3ccccc3c21)c1ccccc1		ATCC 52657	MIC	62.5 µg/mL
CN(C)C1=NC(=O)/C(=C/c2ccc([N+](=O)[O-])cc2)S1	broth dilution	ATCC 32264	MIC100	>250 µg/mL
CC(C)(C)C1CCC(CN2C3=NC[C@H](C4CCCCC4)N3C[C@H]2CC2CCCCC2)CC1		ATCC 32045	EC50	1.7 µg/mL
O[C@](Cn1cncn1)(Cn1cnc(/C=C/c2ccc(OCC(F)(F)C(F)F)cc2)n1)c1ccc(F)cc1F		10 strains	Mean MIC80	0.0075 µg/mL
CCN1C2=NC[C@H](Cc3ccccc3)N2C[C@H]1CC1CCCCC1		ATCC 32045	EC50	37.9 µg/mL
C[C@@H]1[C@H](O)[C@@H](C)/C=C/C=C/C=C/C=C/C=C/C=C/C=C/[C@H](O[C@@H]2O[C@H](C)[C@@H](O)[C@H](N)[C@@H]2O)C[C@@H]2O[C@](O)(C[C@@H](O)C[C@@H](O)[C@H](O)CC[C@@H](O)C[C@@H](O)CC(=O)O[C@H]1C)C[C@H](O)[C@H]2C(=O)O	broth dilution	ATCC 32608	MIC	0.04 µg/mL
CCc1nc([N+]#N)c(C(=O)N2CCCC2)[nH]1		L29	MIC	50 µg/mL

Rows are shuffled and stem from different studies. a–b is a range or a potency band. A number after MIC or MFC names an inhibition level or a share of isolates. ECn: concentration that inhibits the pathogen or its effect by n%.